A mixed list of measured activities; the numbers were collected in NIAID ChemDB.

Common to all: tests in culture; agent: Mycobacterium tuberculosis

MIC50, MIC90 and the like: level of inhibition, or share of isolates inhibited. MIC bound: limit read from a one-dose screen. Inhibition is in % at the dose shown (toxicity tests: loss of growth or viability). Lines come from different laboratories, so protocols vary. An empty or dashed field is not shown. Two numbers with a dash give a range or band. ECn is the concentration giving n% inhibition of infection, replication or growth.

compound	method	tested at	endpoint	strain or isolate	value
CO[C@H]1/C=C/O[C@@]2(C)Oc3c(C)c(O)c4c(O)c(c(/C=N/N5CCN(C)CC5)c(O)c4c3C2=O)NC(=O)/C(C)=C\C=C\[C@H](C)[C@H](O)[C@@H](C)[C@@H](O)[C@@H](C)[C@H](OC(C)=O)[C@@H]1C	broth dilution	-	MIC	Isolate 192	2.5 µg/mL
C=C[C@]1(C)C=C2[C@H](O)C[C@@H]3C(C)(CCC[C@@]3(C)CO)[C@H]2CC1	-	-	MIC	H37Rv	25–100 µg/mL
CC[C@]1(O)C[C@H]2CN(CCC3=C(NC4CC=CC=C34)[C@@](C(=O)OC)(c3cc4c(cc3OC)N(C)[C@H]3[C@@](O)(C(=O)NCCCCCCCCCCCC(=O)O)[C@H](O)[C@]5(CC)C=CCN6CC[C@]43[C@@H]65)C2)C1	BACTEC	-	MIC bound	H37Rv	>12.5 µg/mL
CC(CN1c2ccccc2Sc2ccc(Cl)nc21)N(C)C	-	-	MIC	H37Rv	64 µg/mL
Cc1cc(C)c(C(=O)NNC(=O)c2c(C)cc(C)cc2C)c(C)c1	resazurin	-	MIC bound	H37Rv	>6.25 µg/mL
Nc1ncnc2c1ncn2[C@H]1CC[C@@H](COS(=O)(=O)NC(=O)c2ccccc2O)C1	-	-	MIC	H37Rv	>200 µM
S=C(N=Nc1ccccc1)NNc1ccccc1	-	-	MIC	H37Ra	400 µg/mL
CO[C@H]1/C=C/O[C@@]2(C)Oc3c(C)c(O)c4c(O)c(c(C=O)c(O)c4c3C2=O)NC(=O)/C(C)=C\C=C\[C@H](C)[C@H](O)[C@@H](C)[C@@H](O)[C@@H](C)[C@H](O)[C@@H]1C	-	-	MIC	-	0.5 µg/mL
O=C1CSC2=NC3=C(CSC/C3=C/c3ccc(Cl)cc3)C(c3ccc(Cl)cc3)N12	BACTEC	-	MIC bound	H37Rv	>12.5 µg/mL
Nc1c(NC(=O)/C=C/c2ccccc2)cc(Cl)cc1[N+](=O)[O-]	broth dilution	-	MIC	Isolate 192	>100 µg/mL
Cc1ccc(NC(=O)CC/C(CC(=O)C(C)(C)C)=N\NC(=O)C[n+]2ccccc2)cc1C.[Cl-]	BACTEC	-	MIC	H37Rv	≥12.5 µg/mL
C=CCN1[C@@H](c2ccccc2)CC2(C[C@H]1c1ccccc1)N=c1c(c3c4c5c(C)c(O)c3c(O)c1=NC(=O)/C(C)=C\C=C\[C@H](C)[C@H](O)[C@@H](C)[C@H](O)[C@H](C)[C@H](OC(C)=O)[C@H](C)[C@@H](OC)/C=C/O[C@@](C)(O5)C4=O)N2	-	-	MIC	ATCC 35820 (streptomycin-resistant)	0.02 µg/mL
CC(=O)c1ccc(O)c(-c2csc(N/N=C(\C)c3ccncc3)n2)c1	resazurin	-	EC90	H37Rv (ATCC 27294)	>100 µg/mL
CC(CN1c2ccccc2Sc2ccccc21)[N+](C)(C)C	-	-	MIC	H37Rv	128 µg/mL
CCCCN1[C@@H](c2ccccc2)CC2(C[C@H]1c1ccccc1)N=c1c(c3c4c5c(C)c(O)c3c(O)c1=NC(=O)/C(C)=C\C=C\[C@H](C)[C@H](O)[C@@H](C)[C@H](O)[C@H](C)[C@H](OC(C)=O)[C@H](C)[C@@H](OC)/C=C/O[C@@](C)(O5)C4=O)N2	-	-	MIC	ATCC 35820 (streptomycin-resistant)	0.02 µg/mL
O=C(O)c1cccc2ccccc12	-	-	MIC	H37Ra	200 µg/mL
CO[C@H]1/C=C/O[C@@]2(C)Oc3c(C)c(O)c4c(O)c(c(SCCN=C(N)N)c(O)c4c3C2=O)NC(=O)/C(C)=C\C=C\[C@H](C)[C@H](O)[C@@H](C)[C@@H](O)[C@@H](C)[C@H](OC(C)=O)[C@@H]1C	-	-	MIC	-	1 µg/mL
CCOC(=O)C1=C(Nc2ccc(Cl)cc2Cl)OC/C1=N/NS(=O)(=O)c1ccc(C)cc1	BACTEC	-	MIC bound	H37Rv	>12.5 µg/mL
CO[C@H]1/C=C/O[C@@]2(C)Oc3c(C)c(O)c4c(O)c(cc(OCC(=O)O)c4c3C2=O)NC(=O)/C(C)=C\C=C\[C@H](C)[C@H](O)[C@@H](C)[C@@H](O)[C@@H](C)[C@H](OC(C)=O)[C@@H]1C	-	-	MIC	H37Rv	0.05 µg/mL
CO[C@H]1/C=C/O[C@@]2(C)Oc3c(C)c(=O)c4c(O)c(c5[nH]c6ccccc6nc5c4c3C2=O)NC(=O)/C(C)=C\C=C\[C@H](C)[C@H](O)[C@@H](C)[C@@H](O)[C@@H](C)[C@H](OC(C)=O)[C@@H]1C	-	-	MIC	-	0.5 µg/mL
COc1nn(Cc2ccccc2F)c2ccc([N+](=O)[O-])cc12	resazurin	-	MIC bound	H37Rv	>6.25 µg/mL
Nc1ncnc2c1ncn2[C@H]1C=C[C@@H](COS(=O)(=O)NC(=O)c2ccccc2O)C1	-	-	MIC	H37Rv	>200 µM
Cn1cc(NC(=O)c2cc(NC(=O)c3cc(NC=O)cn3C)cn2C)cc1C(=O)NCCC(=N)N	-	-	MIC	TAC-R	6.4 µg/mL
C=C1C(=O)O[C@@H]2[C@H]3C(C)=CCC[C@]3(C)CC[C@@H]12	-	-	MIC	H37Rv	64 µg/mL
COc1c(C)c(C)c2[nH]c3ccccc3c2c1O	GFP	-	MIC	H37Ra	>50 µg/mL
CCCCCCCCO[C@H]1O[C@H](CO[C@H]2O[C@H](COC(=O)c3ccccc3)[C@@H](OC(=O)c3ccccc3)[C@@H]2OC(=O)c2ccccc2)[C@@H](OCc2ccccc2)[C@@H]1OCc1ccccc1	-	-	MIC	H37Ra	>128 µg/mL
CC1=CC(=O)c2c(O)cccc2C1=O	-	-	MBC	H37Ra	800 µg/mL
C/C(=C\CN)CCC[C@H](C)CCC[C@H](C)CCCC(C)C	-	-	MIC	H37Rv	32 µg/mL
Nc1ncnc2c1ncn2[C@@H]1C[C@H](COS(=O)(=O)NC(=O)c2ccccc2O)[C@@H](O)[C@H]1O	-	-	MIC	H37Rv	1.56 µM
CCOC(=O)c1c(NC(=O)c2cccs2)sc2c1CCC2	resazurin	-	MIC bound	H37Rv	>6.25 µg/mL
C[C@]1(COc2ccc(-c3cc(-c4ccccc4C(F)(F)F)on3)cc2)Cn2cc([N+](=O)[O-])nc2O1	broth dilution / resazurin	-	MIC	ss18b non-replicating phase	>32 µM
CCN.CCNC(=S)S	BACTEC	-	MIC	H37Rv	≥12.5 µg/mL
CO[C@H]1/C=C/O[C@@]2(C)Oc3c(C)c(O)c4c(O)c(c5c(c4c3C2=O)NC2(C[C@@H](c3ccc(F)cc3)N[C@@H](c3ccc(F)cc3)C2)N=5)=NC(=O)/C(C)=C\C=C\[C@H](C)[C@H](O)[C@@H](C)[C@H](O)[C@H](C)[C@H](OC(C)=O)[C@@H]1C	-	-	MIC	H37Rv	0.02 µg/mL
COC(C)(C)C/C=C/C(C)=C/C=C/C(C)=C/C=C/C(C)=C/C=C/C=C(C)/C=C/C=C(C)/C=C/C=C(C)/C=C/CC(C)(C)OC	BACTEC	12.5 µg/mL	inhibition	H37Rv	16%
Fc1ccc2nc(CCc3cc(Cl)cc(Cl)c3)[nH]c2c1	broth dilution	-	MIC	H37Rv	>100 µg/mL
CCOC(=O)N1N=NC2C3OC(C[C@@]3(C#N)OC(C)=O)[C@H]21	BACTEC	-	MIC bound	H37Rv	≤12.5 µg/mL
COc1ccc2[nH]c3c(Cc4ccc5[nH]c6c(C)c(C)c(OC)c(O)c6c5c4)c(C)c(OC)c(O)c3c2c1	GFP	-	MIC	H37Ra	12.5 µg/mL
CCc1ccc(OCc2cn(-c3ccc(OC[C@@]4(C)Cn5cc([N+](=O)[O-])nc5O4)cc3)nn2)cc1	broth dilution / resazurin	-	MIC	ss18b non-replicating phase	16.8 µM
CCSc1nc(NC)c2ccc(F)c(F)c2n1	fluorescence	-	MIC99	H37Rv	0.05 µg/mL
C=C1C(=O)O[C@@H]2C[C@@]3(C)C=C[C@H](O)C(=C)[C@@H]3C[C@H]12	-	-	MIC	H37Rv	32 µg/mL
CO[C@H]1/C=C/O[C@@]2(C)Oc3c(C)c(O)c4c(O)c(c(C=O)c(O)c4c3C2=O)NC(=O)/C(C)=C\C=C\[C@H](C)[C@H](O)[C@@H](C)[C@@H](O)[C@@H](C)[C@H](OC(C)=O)[C@@H]1C	-	-	MIC	-	0.1 µg/mL
COc1ccc2[nH]c3c(C)c(C)c(OC)c(OC)c3c2c1	GFP	-	MIC	H37Ra	25 µg/mL
COc1cc(/C=C/C=O)ccc1O	-	-	MIC	H37Rv (ATCC 27294)	64 µg/mL
C/C(=N\Nc1nc(-c2cccs2)cs1)c1ccncc1	resazurin	-	EC90	H37Rv (ATCC 27294)	>100 µg/mL
NCCn1[nH]c(=O)c2ccncc2c1=O	BACTEC	-	MIC bound	H37Rv	>12.5 µg/mL
C=C[C@](C)(O)CC[C@@H]1[C@@]2(C)CCCC(C)(C)[C@@H]2CC[C@@]1(C)O	-	-	MIC	H37Rv	6 µg/mL
COC1(c2ccccc2C)OC(=O)c2c(C)cccc21	BACTEC	-	MIC bound	H37Rv	>12.5 µg/mL
CO[C@H]1/C=C/O[C@@]2(C)Oc3c(C)c(O)c4c(O)c(c(/C=N/N5CCN(C)CC5)c(O)c4c3C2=O)NC(=O)/C(C)=C\C=C\[C@H](C)[C@H](O)[C@@H](C)[C@@H](O)[C@@H](C)[C@H](O)[C@@H]1C	-	-	MIC	-	0.05 µg/mL
[Cl-].[Cl-].c1ccc([P+](Cc2ccc(C[P+](c3ccccc3)(c3ccccc3)c3ccccc3)s2)(c2ccccc2)c2ccccc2)cc1	BACTEC	12.5 µg/mL	inhibition	H37Rv	76%
C[C@]1(COc2ccc(-n3cc(-c4ccc(C(F)(F)F)cc4)nn3)cc2)Cn2cc([N+](=O)[O-])nc2O1	broth dilution / resazurin	-	MIC	H37Rv	1.03 µM
CC(CN(C)C)CN1c2ccccc2Sc2ccc(Cl)cc21	-	-	MIC	H37Rv	16 µg/mL
CO[C@H]1/C=C/O[C@@]2(C)Oc3c(C)c(O)c4c(c3C2=O)C(=O)C=C(NC(=O)C(C)CCC[C@H](C)[C@H](O)[C@@H](C)[C@@H](O)[C@@H](C)[C@H](OC(C)=O)[C@@H]1C)C4=O	-	-	MIC	-	0.01 µg/mL
O=C1c2ccccc2C(=O)N1[C@@H](Cc1ccccc1)C(=O)n1cccc1CO	BACTEC	6.25 µg/mL	inhibition	H37Rv	0%
CCCCCCCCO[C@H]1O[C@H](CO[C@H]2O[C@H](CO)[C@@H](O)[C@@H]2O)[C@@H](O)[C@@H]1O	-	-	MIC	H37Ra	>128 µg/mL
CN1CCN(CCCN2c3ccccc3Sc3ccc(Cl)cc32)CC1	-	-	MIC	H37Rv	16 µg/mL
C[C@@H]1C[C@@H]2OC(=O)[C@]3(C)[C@H]2[C@@H](OC3(C)O)[C@]2(C)C(=O)C=C[C@@H]12	-	-	MIC	H37Rv	128 µg/mL
C[C@]1(COc2ccc(-c3cc(COc4ccc(Br)cc4)on3)cc2)Cn2cc([N+](=O)[O-])nc2O1	broth dilution / resazurin	-	MIC	H37Rv	0.95 µM
CC(=O)C[C@H]1C[C@H]2[C@H]([C@@H]3c4[nH]c5ccccc5c4CCN13)[C@H](O)C13CC/C=C\CCCCN1CC21CC/C=C\CCCNC13	-	-	MIC	H37Rv	1.9 µg/mL
COC(=O)C1(C)C=C(Nc2ccccc2)C(=O)N1c1ccccc1	BACTEC	12.5 µg/mL	inhibition	H37Rv	38%
Cc1c(O)c2c(c3c1O[C@](C)(O)C3=O)C(=O)C=C(N)C2=O	-	-	MIC	-	>20 µg/mL
C[C@H](N)C(=O)N[C@H]1[C@H](O)[C@H](n2cnc3c(N)ncnc32)O[C@@H]1CO	BACTEC	-	MIC bound	H37Rv	>12.5 µg/mL
O=C1C=CC(=O)c2ccccc21	-	-	MBC	H37Ra	400 µg/mL
CN(C)c1ccc2nc3ccc(=[N+](C)C)cc-3sc2c1	BACTEC	12.5 µg/mL	inhibition	H37Rv	-7%
C=C1C(=O)OC2CC(C)C3(O)CCC(=O)C3(C)CC12	-	-	MIC	H37Rv	128 µg/mL
COC(=O)N1C(c2ccccc2)C=CC(c2ccccc2)N1C(=O)OC	BACTEC	12.5 µg/mL	inhibition	H37Rv	23%
C=C1C(=O)O[C@H]2C[C@@H](C)[C@@H]3C=CC(=O)[C@@]3(C)C[C@H]12	-	-	MIC	H37Rv	16 µg/mL
Cc1cc2c(cc1C)NC1=C(N2)OC(c2c[nH]c3ccc(COc4ccccc4)cc23)C1=O	BACTEC	12.5 µg/mL	inhibition	H37Rv	-16%
C[C@]1(COc2ccc(-n3cc(COc4ccccc4F)nn3)cc2)Cn2cc([N+](=O)[O-])nc2O1	broth dilution / resazurin	-	MIC	ss18b non-replicating phase	4.29 µM

Repeating the first 8 entries:

CO[C@H]1/C=C/O[C@@]2(C)Oc3c(C)c(O)c4c(O)c(c(/C=N/N5CCN(C)CC5)c(O)c4c3C2=O)NC(=O)/C(C)=C\C=C\[C@H](C)[C@H](O)[C@@H](C)[C@@H](O)[C@@H](C)[C@H](OC(C)=O)[C@@H]1C ; method: broth dilution ; endpoint: MIC ; strain or isolate: Isolate 192 ; value: 2.5 µg/mL
C=C[C@]1(C)C=C2[C@H](O)C[C@@H]3C(C)(CCC[C@@]3(C)CO)[C@H]2CC1 ; endpoint: MIC ; strain or isolate: H37Rv ; value: 25–100 µg/mL
CC[C@]1(O)C[C@H]2CN(CCC3=C(NC4CC=CC=C34)[C@@](C(=O)OC)(c3cc4c(cc3OC)N(C)[C@H]3[C@@](O)(C(=O)NCCCCCCCCCCCC(=O)O)[C@H](O)[C@]5(CC)C=CCN6CC[C@]43[C@@H]65)C2)C1 ; method: BACTEC ; endpoint: MIC bound ; strain or isolate: H37Rv ; value: >12.5 µg/mL
CC(CN1c2ccccc2Sc2ccc(Cl)nc21)N(C)C ; endpoint: MIC ; strain or isolate: H37Rv ; value: 64 µg/mL
Cc1cc(C)c(C(=O)NNC(=O)c2c(C)cc(C)cc2C)c(C)c1 ; method: resazurin ; endpoint: MIC bound ; strain or isolate: H37Rv ; value: >6.25 µg/mL
Nc1ncnc2c1ncn2[C@H]1CC[C@@H](COS(=O)(=O)NC(=O)c2ccccc2O)C1 ; endpoint: MIC ; strain or isolate: H37Rv ; value: >200 µM
S=C(N=Nc1ccccc1)NNc1ccccc1 ; endpoint: MIC ; strain or isolate: H37Ra ; value: 400 µg/mL
CO[C@H]1/C=C/O[C@@]2(C)Oc3c(C)c(O)c4c(O)c(c(C=O)c(O)c4c3C2=O)NC(=O)/C(C)=C\C=C\[C@H](C)[C@H](O)[C@@H](C)[C@@H](O)[C@@H](C)[C@H](O)[C@@H]1C ; endpoint: MIC ; value: 0.5 µg/mL